# Results reported in patent US20210380632 (published 2021).
# Experiment: general procedure: solution-phase peptide synthesis; EDC hydrochloride with HOBt.H2O or HOOBt
# Conditions: coupling step
substance,measurement,value
Boc-Gly-Pro-Ser(Bzl)-Ser(Bzl)-Gly-Ala-Pro-Pro-Pro-Ser(Bzl)-NH2,crude purity (method not given),95.0%
